The structures appear in SMILES notation. This is a selection; strong and weak results do not stand in their true shares. Records with an inconclusive call do not appear. Active and inactive are the calls of the source. No stated cut-off is given here; in the data, active means inhibition above about 35% (passing the limit was not always enough); inconclusive means no clear call, values can overlap the other calls.

For the experiment, the system named is Botulinum neurotoxin type F light chain protease (Clostridium botulinum). The experiment in a line: BoNT/F light chain protease inhibitors, primary screen, biochemical, flow cytometry, MLPCN library (AID 588497). Further: plate controls were buffer without enzyme for full effect and enzyme alone for no effect. Particulars: Multiplex microsphere protease cleavage assay, at 10 µM, hits give high values.
On to `CSc1ccc(C(=O)NCC2(N3CCOCC3)CCCCC2)cc1`, for which the inhibition was inactive: 15.5%.
As to `O=C(NCC1(N2CCCCC2)CCCCC1)c1cccc([N+](=O)[O-])c1`, the inhibition was inactive: 3.4%.
For `CC(C)(C)n1nnnc1C(c1ccccc1OC(F)(F)F)N1CCC(n2c(=O)[nH]c3ccccc32)CC1` (stereo not drawn), the inhibition is inactive: 5.9%.
Consider `O=C(NCC1(N2CCCCC2)CCCCC1)c1ccc(OC(F)F)cc1`, for which the inhibition was inactive: 24.4%.
The figure for `COc1cc(C(=O)NCC2(N3CCCCC3)CCCCC2)ccc1OC(F)F` is inactive: 21%; for `O=C(NCC1(N2CCOCC2)CCCCC1)c1cc(=O)[nH]c2ccccc12` it is inactive: -1.7%.
As for `CN1CCN(CCOC(=O)C(O)(c2ccccc2)c2ccccc2)CC1`, the inhibition was inactive: -0.1%.
On to `COc1ccc(NC2CCN(C(=O)OC(C)(C)C)CC2)cc1`, for which the inhibition is inactive: -2.3%.
`CC(C)c1ccc(C(=O)NCC2(N3CCOCC3)CCCCC2)cc1`: the inhibition was inactive: -6.5%.
On to `CCCCn1nnnc1C(c1cccc2ccccc12)N1CCC(n2c(=O)[nH]c3ccccc32)CC1` (stereo not drawn), for which the inhibition was inactive: 0.8%.
As for `O=C(NCC1(N2CCCCC2)CCCCC1)c1cccc(C(F)(F)F)c1`, the inhibition was inactive: 2.3%.
Turning to `O=P1(N(CCCl)CCCl)SCCCS1`, the inhibition was inactive: -1.7%.
Take `CCCCn1nnnc1C(c1cc2ccccc2o1)N1CCC(n2c(=O)[nH]c3ccccc32)CC1` (stereo not drawn): the inhibition is inactive: 0.7%.
Turning to `CCCCOc1ccc(C(=O)NCC2(N3CCOCC3)CCCCC2)cc1`, the inhibition is inactive: 7.3%.
As for `O=C(NCC1(N2CCCCC2)CCCCC1)c1ccc(F)cc1`, the inhibition is inactive: -5.7%.
With `COc1ccc(NC2CCN(CCc3ccccc3)CC2)c(OC)c1`, the inhibition is inactive: -17%.
As for `CCOC(=O)N1CCC(Nc2ccc(F)cc2)CC1`, the inhibition is inactive: -0.2%.
In the case of `CC(C)(C)n1nnnc1C(c1ccccc1)N1CCC(n2c(=O)[nH]c3ccccc32)CC1` (stereo not drawn), the inhibition is inactive: 9.7%.
The figure for `O=C1CCN(Cc2ccccc2)CC1` is inactive: 2.3%; for `CCOc1ccc(C)cc1CN(CCCl)CCCl` it is inactive: 0.9%.
In the case of `COc1cc(C(=O)NCC2(N(C)C)CCCCC2)ccc1OC(F)F`, the inhibition is inactive: 15.8%.
`O=c1[nH]c2ccccc2n1C1CCN(C(c2cccc3ccccc23)c2nnnn2C2CCCC2)CC1` (stereo not drawn): the inhibition is inactive: 4.6%.
On to `O=c1[nH]c2ccccc2n1C1CCN(C(c2ccccc2)c2nnnn2C2CCCCC2)CC1` (stereo not drawn), for which the inhibition is inactive: -0.1%.
For the compound `CSc1ccccc1C(=O)NCC1(N2CCCCC2)CCCCC1`, the inhibition was inactive: -11.2%.
The figure for `Cc1cccc(NC2(C#N)CCN(Cc3ccccc3)CC2)c1` is inactive: 2.1%.
`COc1ccc(C(=O)NCC2(N3CCCCC3)CCCCC2)cc1`: the inhibition is inactive: 9.4%.
For `COc1ccc(C(=O)NCC2(N3CCCCC3)CCCCC2)c(OC)c1OC`, the inhibition is inactive: 1.4%.
The figure for `CC(C)(C)OC(=O)N1CCC(N(C(=O)c2ccccc2)c2ccc(F)cc2)CC1` is inactive: -23.2%; for `CCC(c1nnnn1C1CCCC1)N1CCC(n2c(=O)[nH]c3ccccc32)CC1` (stereo not drawn) it is inactive: 6.8%.
Take `O=C(NCC1(N2CCCCC2)CCCCC1)c1ccc(=O)[nH]c1`: the inhibition is inactive: -4.1%.
Take `CCCCn1nnnc1C(CC)N1CCC(n2c(=O)[nH]c3ccccc32)CC1` (stereo not drawn): the inhibition is inactive: 0.9%.
The result for `O=C(NCC1(N2CCCCC2)CCCCC1)c1cccs1` reads inactive: -11.8%; that for `CCCCn1nnnc1C(c1cccs1)N1CCC(n2c(=O)[nH]c3ccccc32)CC1` (stereo not drawn), inactive: 0.3%.
Consider `O=C(NCC1(N2CCCCC2)CCCCC1)c1ccc(Cl)s1`, for which the inhibition is inactive: -14.1%.
With `O=C(OC1CN2CCC1CC2)C1c2ccccc2Oc2ccccc21` (stereo not drawn), the inhibition was inactive: -0.1%.
The figure for `O=c1[nH]c2ccccc2n1C1CCN(C(c2cc3ccccc3o2)c2nnnn2C2CCCCC2)CC1` (stereo not drawn) is inactive: -5.5%.
With `COc1ccc(Cl)cc1C(=O)NCC1(N2CCOCC2)CCCCC1`, the inhibition is inactive: 0.1%.
As to `CCOC(=O)N1CCC(Nc2ccc(OC)cc2)CC1`, the inhibition was inactive: -5.4%.
Consider `CCCCn1nnnc1C(c1ccc(OC)cc1)N1CCC(n2c(=O)[nH]c3ccccc32)CC1` (stereo not drawn), for which the inhibition is inactive: -9.9%.
`O=C(NCC1(N2CCCCC2)CCCCC1)c1ccc(Cl)nc1`: the inhibition is inactive: 0.6%.
With `O=c1[nH]c2ccccc2n1C1CCN(C(c2ccccc2OC(F)(F)F)c2nnnn2C2CCCCC2)CC1` (stereo not drawn), the inhibition is inactive: 0.8%.
Take `Cc1cc(C)cc(N(C(=O)c2ccccc2)C2CCN(C(=O)OC(C)(C)C)CC2)c1`: the inhibition is inactive: 2.6%.
The figure for `O=C(NCC1(N2CCOCC2)CCCCC1)c1cc2ccccc2o1` is inactive: -3.8%.

By inhibition is commonly meant the drop in the measured response relative to a control, in per cent.

For the origin of these results see PubChem BioAssay AID588497 (NMMLSC, 2011).
